Data as given in PubChem BioAssay AID624099 (ICCB-Longwood, 2012)
Assay: 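Host factors E2 relies on to silence an HPV18 LCR reporter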 (primary screen). Cell system: human C33A cervical carcinoma cells (HPV-negative) stably expressing BPV1 E2 and an HPV18 LCR luciferase reporter. Knock-down reagent: siRNA pool against human genes, 40 nM. Timing: 72 h. Measured: 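HPV18 LCR reporter light per well, converted to plate-wise z-scores that exclude control wells, and averaged over triplicate plates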. Reading the numbers: mean z-score and z-score: higher = stronger reporter signal, weaker E2 silencing. Active means: 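Hit if mean z-score reaches 2 and two or more of three replicate z-scores also reach 2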.
In all, the deposit lists about 21,000 reagents; shown is an unselected part. 497 of all reagents (2.4%) count as active. 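Higher z means weaker E2 silencing; only reporter increases were scored, and knock-downs that hurt cell survival may mask genuine repressor factors.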 A number with no mark means an inactive call. Reagent sequences are not shown.

{"gene knocked down": "ACSS3 (GeneID 79611)", "mean z-score": -0.53, "z-score, replicate A": -0.79, "z-score, replicate B": -0.98, "z-score, replicate C": 0.17}
{"gene knocked down": "LOC400742 (retired record) (GeneID 400742)", "mean z-score": 0.55, "z-score, replicate A": 1.08, "z-score, replicate B": 0.57, "z-score, replicate C": 0.01}
{"gene knocked down": "DCK (GeneID 1633)", "mean z-score": -0.88, "z-score, replicate A": -1.2, "z-score, replicate B": -0.57, "z-score, replicate C": -0.85}
{"gene knocked down": "PPFIA1 (GeneID 8500)", "mean z-score": -1.18, "z-score, replicate A": -1.2, "z-score, replicate B": -1.18, "z-score, replicate C": -1.15}
{"gene knocked down": "MRPS14 (GeneID 63931)", "mean z-score": -0.6, "z-score, replicate A": -0.57, "z-score, replicate B": -0.53, "z-score, replicate C": -0.68}

Part of the list above, reformatted:
gene knocked down	mean z-score	z-score, replicate A	z-score, replicate B	z-score, replicate C
PPFIA1 (GeneID 8500)	-1.18	-1.2	-1.18	-1.15
MRPS14 (GeneID 63931)	-0.6	-0.57	-0.53	-0.68

The listing continues:
{"gene knocked down": "GLP1R (GeneID 2740)", "mean z-score": -0.64, "z-score, replicate A": -0.45, "z-score, replicate B": -0.86, "z-score, replicate C": -0.61}
{"gene knocked down": "SLC6A19 (GeneID 340024)", "mean z-score": -1.42, "z-score, replicate A": -1.19, "z-score, replicate B": -1.63, "z-score, replicate C": -1.45}
{"gene knocked down": "LOC401703 (GeneID 401703)", "mean z-score": -0.26, "z-score, replicate A": -0.48, "z-score, replicate B": 0.21, "z-score, replicate C": -0.51}
{"gene knocked down": "SSH1 (GeneID 54434)", "mean z-score": 0.59, "z-score, replicate A": 0.64, "z-score, replicate B": 0.4, "z-score, replicate C": 0.73}
{"gene knocked down": "GPC5 (GeneID 2262)", "mean z-score": -1, "z-score, replicate A": -0.9, "z-score, replicate B": -0.9, "z-score, replicate C": -1.19}
{"gene knocked down": "MITF (GeneID 4286)", "mean z-score": 0.96, "z-score, replicate A": 0.78, "z-score, replicate B": 1.1, "z-score, replicate C": 1}
{"gene knocked down": "LOC389059 (retired record) (GeneID 389059)", "mean z-score": 0.43, "z-score, replicate A": 0.31, "z-score, replicate B": 0.37, "z-score, replicate C": 0.62}
{"gene knocked down": "NOS3 (GeneID 4846)", "mean z-score": 0.86, "z-score, replicate A": 0.93, "z-score, replicate B": 1, "z-score, replicate C": 0.65}
{"gene knocked down": "CDCP1 (GeneID 64866)", "mean z-score": -0.24, "z-score, replicate A": -0.72, "z-score, replicate B": 0.02, "z-score, replicate C": -0.03}
